This assay concerns Fusarium graminearum. As to the kind of experiment: Antifungal activity against Fusarium graminearum isolate CE169 after 48 to 72 hr. The assay is classed as functional.

Structures are written as SMILES. Converted amounts (≈) assume the structure as drawn.

Take `COC(=O)Nc1nc2ccccc2[nH]1` [CARBENDAZIM]: the MIC (in general, the lowest concentration that inhibits growth of the organism) is 1 µg/mL (≈ 5.23 µM).

Values taken from ChEMBL document CHEMBL3046626, “Antifungal chalcones and new caffeic acid esters from Zuccagnia punctata acting against soybean infecting fungi” (2004).
